According to paper PMC9541285, “Drug‐dependent inhibition of nucleotide hydrolysis in the heterodimeric ABC multidrug transporter PatAB from Streptococcus pneumoniae” (The Febs Journal, 2022):

System: Nc1ncnc2c1ncn2[C@@H]1O[C@H](COP(=O)(O)OP(=O)(O)OP(=O)(O)O)[C@@H](O)[C@H]1O
Assay: purified protein
Conditions: 10 mM MgCl2, pH 7.0, 30 °C, DDM, no drug

PatAB (PatA^WTB^WT) (Streptococcus pneumoniae; Q8DN70:Q521A)
Km: 2200 ± 1000 µM
